# Patent US20240109955A1 (published 2024)
# B1: MX1023 (bispecific antibody)
# chain: EIVMTQSPAILSVSPGERATLSCRASQSVAINLAWYQQKPGQAPRLLIYAASSRATGIPGRFSGSGSETNFTLTISSLQSGDFAVYYCQQYITWPPSYTFGQGTKLEIKGGSSGQTVVTQEPSFSVSPGGTVTLTCGLSSGSVSTAYFPSWYQQTPGQAPRTLIYGTNTRSSGVPDRFSGSILGNKAALTITGAQADDESDYYCVLYMGRGIVVFGGGTKLTVLGGGGSGGSGSGGGGSASGSGQVQLVESGGGVVQPGRSLRLSCAASGFTLSSYGMHWVRQAPGKGLEWVAVISYDGSNKYYVDSVKGRFTISRDNSKNTLYLQMNSLRAEDTAVYYCRWAYWELLPDYYYGMDVWGQGTTVTVSSGGSSGEVQLVESGGALIQPGGSLRLSCAASGIIVSANYMSWVRQAPGKGLEWVSVIYSGGSTFYADSVKGRFTISRDNSKNTLYLEMNSLRAEDTAVYYCARDAPILGVSDWGQGTLVTVSSASGGSGDKTHTCPPCPAPELLGGPSVFLFPPKPKDTLMISRTPEVTCVVVDVSHEDPEVKFNWYVDGVEVHNAKTKPREEQYNSYVVSVLTVLHQDWLNGKEYKCKVSNKALPAPIEKTISKAKGQPREPQVYTLPPSRDELTKNQVSLTCLVKGFYPSDIAVEWESNGQPENNYKTTPPVLDSDGSFFKKLTVDKSRWQQGNVFSCSVLHEALHSHYTQKSLSLSPG
# B2: MX1042 (bispecific antibody)
# chain: DTVMTQSPLSLPVTPGEPASISCRSSQSLLNSNGYNYLDWYVQKPGQSPQLLIYLGSNRASGVPDRFSGSGSGTDFTLKISRVEAEDVGVYYCMQPLQTPLFTFGPGTKVEIKGGSSGEIVLTQSPGTLSLSPGETATLSCRASQSFSSDLAWYQQKPGQAPRLLIYGASSRATGIPDRFSGSGSGTDFTLTISRLEPADFAVYYCQQYGSSPPVTFGGGTKVEIKGGGGSGGSGSGGGGSASGSGEVQLVESGGGLIQPGGSLRLSCAASGVIVSYNYMNWVRQAPGKGLEWVSVIYSGGSTFYADSVRGRFTISRDNSKNTLYLQMNSLRAEDTAVYYCARDLGPAGAFDIWGLGTMVTVSSGGSSGQVTLRESGPALVKPTQTLTLTCTFSGFSLSTRGVCVSWIRQPPGKALEWLAFIDWDDDKYYNTSLKTRLTISKDTSKNQVVLTMTNVHPVDTATYYCARISSHHGSSWCTTFDYWGQGALVTVSAASGGSGDKTHTCPPCPAPELLGGPSVFLFPPKPKDTLMISRTPEVTCVVVDVSHEDPEVKFNWYVDGVEVHNAKTKPREEQYNSYVVSVLTVLHQDWLNGKEYKCKVSNKALPAPIEKTISKAKGQPREPQVYTLPPSRDELTKNQVSLTCLVKGFYPSDIAVEWESNGQPENNYKTTPPVLDSDGSFFKKLTVDKSRWQQGNVFSCSVLHEALHSHYTQKSLSLSPG
# Key:
# Experiment in all cases: cell-based or functional assay
# [1] = target: SARS-CoV-2 Omicron variant BA.4.6 spike protein (SARS-CoV-2)
# [2] = target: SARS-CoV-2 Omicron variant B.1.1.529 spike protein (SARS-CoV-2)
# [3] = target: SARS-CoV-2 Omicron variant BF.7 spike protein (SARS-CoV-2)
# [4] = target: SARS-CoV-2 Delta variant spike protein (SARS-CoV-2)
# [5] = target: SARS-CoV-2 Omicron variant BA.2.75.2 spike protein (SARS-CoV-2)
# [6] = target: SARS-CoV-2 Omicron variant BA.4/5 spike protein (SARS-CoV-2)
# [7] = target: SARS-CoV-2 Omicron variant BQ.1 spike protein (SARS-CoV-2)
# [8] = target: SARS-CoV-2 Omicron variant BQ.1.1 spike protein (SARS-CoV-2)
# [9] = target: SARS-CoV-2 Omicron variant XBB spike protein (SARS-CoV-2)
# [10] = target: SARS-CoV-2 Delta variant spike protein (SARS-CoV-2); remark: listed apart in the source
# [11] = target: SARS-CoV-2 Omicron variant B.1.1.529 spike protein (SARS-CoV-2); remark: listed apart in the source
binder,measurement,setting,value
B1,"IC50, pseudovirus neutralization",[1],0.0234 µg/mL
same,"IC80, pseudovirus neutralization",[1],0.0775 µg/mL
same,"IC50, pseudovirus neutralization",[2],0.00374 µg/mL
same,"IC80, pseudovirus neutralization",[2],0.00867 µg/mL
same,"IC50, pseudovirus neutralization",[3],0.0187 µg/mL
same,"IC80, pseudovirus neutralization",[3],0.0545 µg/mL
same,"IC50, pseudovirus neutralization",[4],0.0889 µg/mL
same,"IC80, pseudovirus neutralization",[4],0.205 µg/mL
same,"IC50, pseudovirus neutralization",[5],0.0111 µg/mL
same,"IC80, pseudovirus neutralization",[5],0.0295 µg/mL
same,"IC50, pseudovirus neutralization",[6],0.0297 µg/mL
same,"IC80, pseudovirus neutralization",[6],0.0307 µg/mL
same,"IC50, pseudovirus neutralization",[7],0.0297 µg/mL
same,"IC80, pseudovirus neutralization",[7],0.0852 µg/mL
same,"IC50, pseudovirus neutralization",[8],0.0284 µg/mL
same,"IC80, pseudovirus neutralization",[8],0.096 µg/mL
same,"IC50, pseudovirus neutralization",[9],0.00979 µg/mL
same,"IC80, pseudovirus neutralization",[9],0.0532 µg/mL
B2,"IC50, pseudovirus neutralization",[10],0.0417 µg/mL
same,"IC80, pseudovirus neutralization",[10],0.0614 µg/mL
same,"IC50, pseudovirus neutralization",[11],0.00256 µg/mL
same,"IC80, pseudovirus neutralization",[11],0.00434 µg/mL

# Where two headings read alike, the source gives them in different places.
